Results on one substance are retold here after US20260102474A1.

For this experiment, the target named is Delta (SARS-COV-2). Description: competition.

On to REGN10933, for which the IC50 was 0.4 nM.
